Assay results: patent US20240409571A1 (priority 2023, published 2024)
Like-named read-outs stand apart in the source and are kept apart here.

Columns and labels:
[1] = tested on: PmST3; assay: Donor substrate specificity of PmST3, one-pot sialylation system; assay type: biochemical, Pasteurella multocida; conditions: for Sialylation: acceptor LacßSph, SiaT PmST3, donor generated in situ from precursor
[2] = molecular target: CMP-sialic acid synthetase (Neisseria meningitidis, UniProt P0A0Z8, N224H)
[3] = tested on: CjCst-I; assay: Donor substrate specificity of CjCst-I, one-pot sialylation system; assay type: biochemical, Campylobacter jejuni; conditions: acceptor LacßSph; SiaT CjCst-I; donor generated in situ from precursor
[4] = tested on: CjCst-II; assay: Donor substrate specificity of CjCst-II, one-pot sialylation system; assay type: biochemical, Campylobacter jejuni; conditions: donor generated in situ from precursor
[5] = molecular target: PmST1 (Pasteurella multocida, UniProt Q15KI8); assay: Donor substrate specificity of wild-type PmST1, one-pot sialylation system; assay type: biochemical; conditions: substance as acceptor substrate
[6] = one-pot reaction with LacßProN3, SiaT PmST1 or PmST1_M144D
[7] = one-pot reaction with LacßSph, SiaT CjCst-I
[8] = one-pot reaction with LacßSph, SiaT PmST3

[N-]=[N+]=NC1C(O)O[C@H]([C@@H](CO)N=[N+]=[N-])[C@H]1O (some centres unmarked)
Sialylation [1]: < 10% | CMP-Sia formation [2, 6]: Low | CMP-Sia formation [2, 7]: Low | CMP-Sia formation [2, 8]: Low | Sialylation [3]: < 10%

[N-]=[N+]=NC1C(O)OC(CO)[C@@H](N=[N+]=[N-])[C@@H]1O (some centres unmarked)
Sialylation [1]: 50-60% | CMP-Sia formation [2, 6]: Good | CMP-Sia formation [2, 7]: Good | CMP-Sia formation [2, 8]: Good | Sialylation by CjCst-II, acceptor GM3ßSph ([4]; acceptor GM3ßSph): 50 to 60% | Sialylation by CjCst-II, acceptor GM3βProN3 ([4]; acceptor GM3βProN3): Over 90% | Sialylation [3]: 60-70%

β-D-Galactopyranosyl-(1→3)-(2-acetamido-2-deoxy-β-D-galactopyranosyl)-(→4)-(5,9-diacetamido-3,5,9-trideoxy-D-glycero-α-D-galacto-2-nonulopyranosylonic acid)-(2→8)-(5-acetamido-3,5-dideoxy-D-glycero-α-D-galacto-2-nonulopyranosylonic acid)-(2→3)-β-D-galactopyranosyl-(1→4)-β-D-glucopyranosyl-(1→1)-(2S, 3R, 4E)-2-amino-4-octadecene-1,3-diol
activity on sialylating the terminal Gal ([1]; substance as acceptor substrate, PmST3): no or very low activity | activity on sialylating the terminal Gal [5]: no or very low activity
